Test results as given in patent US12023323B2, “Carbohydrate-binding small molecules with antiviral activity” (priority 2018, dated 2024).

Experiments:
ZIKV GFP RVPs = experiment: ZIKV reporter virus particle (RVP) infection assay in Vero cells; settings: for IC50: Table 1, compounds 30 min before ZIKV RVPs, GFP+ cells 72 h postinfection; for anti-ZIKV activity in words: ZIKV RVPs
ZIKV RVPs = experiment: ZIKV RVP infection assay in HeLa cells; format: cell-based, Zika virus; settings: Table 2

Row | Compound | IC50 (ZIKV GFP RVPs) | anti-ZIKV activity in words (ZIKV GFP RVPs) | IC50 (ZIKV RVPs)
1 | [N-]=[N+]=NCc1cc(CN=[N+]=[N-])cc(-c2cc(CN=[N+]=[N-])cc(Cn3cc(COCCOCc4cn(Cc5cc(CN=[N+]=[N-])cc(-c6cc(CN=[N+]=[N-])cc(CN=[N+]=[N-])c6)c5)nn4)nn3)c2)c1 | > 100 µM |  | 
2 | 1,1′,1′″-([1,1′-biphenyl]-3,3′,5,5′-tetrayl)tetrakis(N-((1-methyl-1H-imidazol-2-yl)methyl)methanamine) | > 100 µM | does not show any anti-Zika activity | 
3 | [N-]=[N+]=NCc1cc(CN=[N+]=[N-])cc(-c2cc(CN=[N+]=[N-])cc(Cn3cc(COCCOCCOCCOCc4cn(Cc5cc(CN=[N+]=[N-])cc(-c6cc(CN=[N+]=[N-])cc(CN=[N+]=[N-])c6)c5)nn4)nn3)c2)c1 | > 100 µM |  | 
4 | (1E,1′E,1″E,1′″E)-N,N,N′,N″-([1,1′-biphenyl]-3,3′,5,5′-tetrayltetrakis(methylene))tetrakis(1-(1H-pyrrol-2-yl)methanimine) | 1.36 µM | less potent | 3.06 µM
5 | [N-]=[N+]=NCc1cc(CN=[N+]=[N-])cc(-c2cc(CN=[N+]=[N-])cc(Cn3cc(COCCOCCOCCOCCOCCOCc4cn(Cc5cc(CN=[N+]=[N-])cc(-c6cc(CN=[N+]=[N-])cc(CN=[N+]=[N-])c6)c5)nn4)nn3)c2)c1 | > 100 µM |  | 
6 | (1E,1′E,1″E,1′″E)-N,N,N′,N″-([1,1′-biphenyl]-3,3′,5,5′-tetrayltetrakis(methylene))tetrakis(1-(furan-2-yl)methanimine) | > 100 µM | not effective | 
7 | (1E,1′E,1″E,1′″E)-N,N,N″,N″-([1,1′-biphenyl]-3,3′,5,5′-tetrayltetrakis(methylene))tetrakis(1-(thiophen-2-yl)methanimine) | > 100 µM | not effective | 
